Compound potency records, mixed from different reports. Data source: NIAID ChemDB in PubChem.

Shared fields: growth or infection tests

Lines come from different laboratories, so protocols vary.

{"SMILES": "CCc1cc(C(N)=S)ccn1", "endpoint": "Median MIC", "agent": "Mycobacterium avium", "strain": "ATCC 25291", "result": ">2.8 µg/mL"}
{"SMILES": "NC[C@@H]1O[C@H](O[C@H]2[C@@H](O)[C@H](O[C@@H]3[C@@H](O)[C@H](N)C[C@H](N)[C@H]3O[C@H]3O[C@H](CO)[C@@H](O)[C@H](O)[C@H]3N)O[C@@H]2CO)[C@H](N)[C@@H](O)[C@@H]1O", "endpoint": "MIC", "agent": "Mycobacterium avium complex", "strain": "LR25/HIV+", "result": "1.56 µg/mL"}
{"SMILES": "Nc1nc(N)c2c(n1)NC(c1ccc(Cl)cc1)CC(c1ccc3c(c1)OCO3)=N2", "conditions": "clinical isolate", "endpoint": "MIC", "read by": "MTT / broth dilution / absorbance", "agent": "Mycobacterium szulgai", "strain": "MNT1100", "result": "32 µg/mL"}
{"SMILES": "O=C(Nc1ccc(C(F)(F)F)cc1)c1cc(Cl)ccc1OP(=O)(Oc1ccccc1)Oc1ccccc1", "conditions": "21 d", "endpoint": "MIC", "agent": "Mycobacterium kansasii", "strain": "My 6509/96", "result": "4 µM"}
{"SMILES": "COc1c(N2CCNC(C)C2)c(F)cc2c(=O)c(C(=O)O)cn(C3CC3)c12", "endpoint": "MIC99", "agent": "Mycobacterium smegmatis", "strain": "KD1991 (GYRA D95Y)", "result": "0.47 µg/mL"}
{"SMILES": "CN[C@@H]1[C@H](O[C@H]2[C@H](O[C@H]3[C@H](O)[C@@H](O)[C@H](N=C(N)N)[C@@H](O)[C@@H]3N=C(N)N)O[C@@H](C)[C@]2(O)C=O)O[C@@H](CO)[C@H](O)[C@H]1O", "endpoint": "MIC", "agent": "Mycobacterium avium complex", "strain": "Isolate C-46", "result": ">400 µg/mL"}
{"SMILES": "COc1ccc(C2CC(c3ccc4c(c3)OCO4)=Nc3c(N)nc(SC)nc3N2)cc1", "conditions": "clinical isolate", "endpoint": "MIC", "read by": "MTT / broth dilution / absorbance", "agent": "Mycobacterium scrofulaceum", "strain": "MNT1193", "result": ">32 µg/mL"}
{"SMILES": "CC1CN(c2cc3c(cc2F)c(=O)c(C(=O)O)cn3C2CC2)CC(C)N1", "endpoint": "MIC99", "agent": "Mycobacterium smegmatis", "strain": "KD2008 (GYRA G89C)", "result": "3.8 µg/mL"}
{"SMILES": "NC[C@@H]1O[C@H](O[C@H]2[C@@H](O)[C@H](O[C@@H]3[C@@H](O)[C@H](N)C[C@H](N)[C@H]3O[C@H]3O[C@H](CO)[C@@H](O)[C@H](O)[C@H]3N)O[C@@H]2CO)[C@H](N)[C@@H](O)[C@@H]1O", "endpoint": "Median MIC", "agent": "Mycobacterium avium", "strain": "ATCC 25291", "result": "16 µg/mL"}
{"SMILES": "CCc1cc(C(N)=S)ccn1", "endpoint": "inhibition", "dose": "1.25 µg/mL", "agent": "Mycobacterium avium intracellulare", "strain": "Serovar 8", "result": "49%"}
{"SMILES": "O=C(O)c1cn(C2CC2)c2c(F)c(N3CCNCC3)c(F)cc2c1=O", "endpoint": "MIC99", "agent": "Mycobacterium smegmatis", "strain": "KD2012 (GYRA G89A)", "result": "0.42 µg/mL"}
{"SMILES": "CN[C@@H]1[C@H](O[C@H]2[C@H](O[C@H]3[C@H](O)[C@@H](O)[C@H](N=C(N)N)[C@@H](O)[C@@H]3N=C(N)N)O[C@@H](C)[C@]2(O)C=O)O[C@@H](CO)[C@H](O)[C@H]1O", "endpoint": "EC90", "agent": "Mycobacterium aurum", "strain": "A+", "result": "0.18 µg/mL"}
{"SMILES": "CC(C)N1CCN(c2c(F)cc3c(=O)c(C(=O)O)cn(C4CC4)c3c2F)CC1", "endpoint": "MIC99", "agent": "Mycobacterium smegmatis", "strain": "KD1995 (GYRA D95H)", "result": "3.8 µg/mL"}
{"SMILES": "CN[C@@H]1[C@H](O[C@H]2[C@H](O[C@H]3[C@H](O)[C@@H](O)[C@H](N=C(N)N)[C@@H](O)[C@@H]3N=C(N)N)O[C@@H](C)[C@]2(O)C=O)O[C@@H](CO)[C@H](O)[C@H]1O", "endpoint": "Mean MIC", "agent": "Mycobacterium avium", "strain": "ATCC 25291", "result": "1.25 µg/mL"}
{"SMILES": "COc1cc(Cc2cnc(N)nc2N)cc(OC)c1OCCCNc1ccc(S(=O)(=O)c2ccc(N)cc2)cc1", "endpoint": "MBC", "agent": "Mycobacterium ulcerans", "strain": "Isolate 94-539", "result": "4 µg/mL"}
{"SMILES": "CC[C@H]1OC(=O)[C@H](C)[C@@H](O[C@H]2C[C@@](C)(OC)[C@@H](O)[C@H](C)O2)[C@H](C)[C@@H](O[C@@H]2O[C@H](C)C[C@H](N(C)C)[C@H]2O)[C@](C)(OC)C[C@@H](C)C(=O)[C@H](C)[C@@H](O)[C@]1(C)O", "endpoint": "Median MIC", "agent": "Mycobacterium avium", "strain": "ATCC 25291", "result": "5 µg/mL"}
{"SMILES": "CN1C(=O)C2(C3=C(CN2C)C(=O)c2ccccc2C3=O)c2ccccc21", "endpoint": "zone", "dose": "50 µg/mL", "read by": "agar diffusion", "agent": "Mycobacterium luteus", "result": "12 mm"}
{"SMILES": "C[C@@H]1CN(c2c(F)c(N)c3c(=O)c(C(=O)O)cn(C4CC4)c3c2F)C[C@H](C)N1", "endpoint": "MIC", "read by": "broth dilution", "agent": "Mycobacterium avium complex", "strain": "2", "result": "2 µg/mL"}
{"SMILES": "CCC1CN(c2c(F)cc3c(=O)c(C(=O)O)cn(C4CC4)c3c2F)CCN1", "endpoint": "MIC99", "agent": "Mycobacterium smegmatis", "strain": "KD1987 (GYRA A91V)", "result": "0.53 µg/mL"}
{"SMILES": "Nc1nc(N)c2c(n1)NC(c1ccc(C(F)(F)F)cc1)CC(c1ccc3c(c1)OCO3)=N2", "conditions": "clinical isolate", "endpoint": "MIC", "read by": "MTT / broth dilution / absorbance", "agent": "Mycobacterium szulgai", "strain": "MNT1100", "result": "32 µg/mL"}
{"SMILES": "CCN1C(=O)C2(C3=C(CN2C)C(=O)c2ccccc2C3=O)c2ccccc21", "endpoint": "MIC", "read by": "agar diffusion", "agent": "Mycobacterium luteus", "result": "31.25 µg/mL"}
{"SMILES": "O=C1c2cc(Cl)ccc2OP(=O)(c2ccccc2)N1c1ccc(C(F)(F)F)cc1", "conditions": "21 d", "endpoint": "MIC", "agent": "Mycobacterium kansasii", "strain": "My 235/80", "result": "8 µM"}
{"SMILES": "CCOc1cc(Cc2cnc(N)nc2N)cc(OCC)c1-n1cccc1", "endpoint": "MBC", "agent": "Mycobacterium ulcerans", "strain": "Isolate 842", "result": "0.5 µg/mL"}
{"SMILES": "C=CCN1C(=O)C2(C3=C(CN2C)C(=O)c2ccccc2C3=O)c2ccccc21", "endpoint": "zone", "dose": "50 µg/mL", "read by": "agar diffusion", "agent": "Mycobacterium luteus", "result": "10 mm"}
{"SMILES": "O=C(Nc1ccc(Cl)cc1)c1cc(Cl)ccc1OP(=O)(Oc1ccccc1)c1ccccc1", "conditions": "21 d", "endpoint": "MIC", "agent": "Mycobacterium kansasii", "strain": "My 6509/96", "result": "8 µM"}
{"SMILES": "CCC1CN(c2c(F)cc3c(=O)c(C(=O)O)cn(C4CC4)c3c2OC)CCN1", "endpoint": "MIC99", "agent": "Mycobacterium smegmatis", "strain": "KD1987 (GYRA A91V)", "result": "0.38 µg/mL"}
{"SMILES": "CCC[C@@H]1C[C@@H](C(=O)N[C@@H]([C@H]2O[C@H](SC)[C@H](O)[C@@H](O)[C@H]2O)[C@@H](C)O)N(C)C1", "endpoint": "Mean MIC", "agent": "Mycobacterium avium", "strain": "ATCC 25291", "result": "112 µg/mL"}
{"SMILES": "COc1c(N2CCNCC2)c(F)cc2c(=O)c(C(=O)O)cn(C3CC3)c12", "endpoint": "MIC99", "agent": "Mycobacterium smegmatis", "strain": "KD1995 (GYRA D95H)", "result": "0.57 µg/mL"}
{"SMILES": "CO[C@H]1/C=C/O[C@@]2(C)Oc3c(C)c(O)c4c(O)c(c(/C=N/N5CCN(C)CC5)c(O)c4c3C2=O)NC(=O)/C(C)=C\\C=C\\[C@H](C)[C@H](O)[C@@H](C)[C@@H](O)[C@@H](C)[C@H](OC(C)=O)[C@@H]1C", "endpoint": "EC50", "agent": "Mycobacterium aurum", "strain": "A+", "result": "<0.57 µg/mL"}
{"SMILES": "Nc1ccc(C(=O)O)c(O)c1", "endpoint": "Mean MIC", "agent": "Mycobacterium avium", "strain": "ATCC 25291", "result": "72 µg/mL"}
{"SMILES": "NCC[C@H](O)C(=O)N[C@@H]1C[C@H](N)[C@@H](O[C@H]2O[C@H](CN)[C@@H](O)[C@H](O)[C@H]2O)[C@H](O)[C@H]1O[C@H]1O[C@H](CO)[C@@H](O)[C@H](N)[C@H]1O", "endpoint": "MIC", "agent": "Mycobacterium avium complex", "strain": "CH-5/HIV+", "result": "1.25 µg/mL"}
{"SMILES": "O=C(Nc1ccc(Cl)c(Cl)c1)c1cc(Cl)ccc1OP(=O)(c1ccccc1)c1ccccc1", "conditions": "21 d", "endpoint": "MIC", "agent": "Mycobacterium kansasii", "strain": "My 235/80", "result": "8 µM"}
{"SMILES": "CCCCCCN1C(=O)C2(C3=C(CN2C)C(=O)c2ccccc2C3=O)c2ccccc21", "endpoint": "MIC", "read by": "agar diffusion", "agent": "Mycobacterium luteus", "result": "250 µg/mL"}
{"SMILES": "Nc1nc(N)c2c(n1)NC(c1ccc(F)cc1)CC(c1ccc3c(c1)OCO3)=N2", "conditions": "clinical isolate", "endpoint": "MIC", "read by": "MTT / broth dilution / absorbance", "agent": "Mycobacterium scrofulaceum", "strain": "MNT1193", "result": "32 µg/mL"}
{"SMILES": "CN1CC2=C(C(=O)c3ccccc3C2=O)C12C(=O)Nc1ccc(I)cc12", "endpoint": "MIC", "read by": "agar diffusion", "agent": "Mycobacterium luteus", "result": "15.62 µg/mL"}
{"SMILES": "CO[C@H]1/C=C/O[C@@]2(C)Oc3c(C)c(O)c4c(O)c(c(/C=N/N5CCN(C)CC5)c(O)c4c3C2=O)NC(=O)/C(C)=C\\C=C\\[C@H](C)[C@H](O)[C@@H](C)[C@@H](O)[C@@H](C)[C@H](OC(C)=O)[C@@H]1C", "endpoint": "Median MIC", "agent": "Mycobacterium avium", "strain": "ATCC 25291", "result": "8 µg/mL"}
{"SMILES": "CN[C@@H]1[C@H](O[C@H]2[C@H](O[C@H]3[C@H](O)[C@@H](O)[C@H](N=C(N)N)[C@@H](O)[C@@H]3N=C(N)N)O[C@@H](C)[C@]2(O)C=O)O[C@@H](CO)[C@H](O)[C@H]1O", "endpoint": "zone", "dose": "0.5 µg/mL", "read by": "agar diffusion", "agent": "Mycobacterium luteus", "result": "23 mm"}
{"SMILES": "O=C(Nc1ccc(C(F)(F)F)cc1)c1cc(Br)ccc1OP(=O)(c1ccccc1)c1ccccc1", "conditions": "7 d", "endpoint": "MIC", "agent": "Mycobacterium kansasii", "strain": "My 6509/96", "result": "4 µM"}
{"SMILES": "CC1CN(c2cc3c(cc2F)c(=O)c(C(=O)O)cn3C2CC2)CCN1", "endpoint": "MIC99", "agent": "Mycobacterium smegmatis", "strain": "KD2008 (GYRA G89C)", "result": "2.6 µg/mL"}
{"SMILES": "O=C(Nc1ccc(Br)cc1)c1cc(Cl)ccc1OP(=O)(Oc1ccccc1)Oc1ccccc1", "conditions": "7 d", "endpoint": "MIC", "agent": "Mycobacterium kansasii", "strain": "My 6509/96", "result": "8 µM"}
{"SMILES": "CC(=O)O[C@H]1C[C@@]2(C)[C@@H](C[C@@H](O)[C@H]3[C@@]4(C)CC[C@@H](O)[C@@H](C)[C@@H]4CC[C@@]32C)/C1=C(\\CCC=C(C)C)C(=O)O", "endpoint": "Mean MIC", "agent": "Mycobacterium avium", "strain": "ATCC 25291", "result": "19 µg/mL"}
{"SMILES": "CO[C@H]1/C=C/O[C@@]2(C)Oc3c(C)c(O)c4c(O)c(c5c(c4c3C2=O)NC2(CCN(CC(C)C)CC2)N=5)=NC(=O)/C(C)=C\\C=C\\[C@H](C)[C@H](O)[C@@H](C)[C@@H](O)[C@@H](C)[C@H](OC(C)=O)[C@@H]1C", "endpoint": "MBC", "agent": "Mycobacterium avium complex", "strain": "921", "result": "32 µg/mL"}
{"SMILES": "COc1c(N2CC(C)NC(C)C2)c(F)cc2c(=O)c(C(=O)O)cn(C3CC3)c12", "endpoint": "MIC99", "agent": "Mycobacterium smegmatis", "strain": "KD2003 (GYRA D95G)", "result": "0.71 µg/mL"}
{"SMILES": "CN[C@@H]1[C@@H](O)[C@@H](O[C@@H]2[C@@H](O)[C@H](O[C@H]3O[C@H](CN)CC[C@H]3N)[C@@H](N)C[C@H]2N)OC[C@]1(C)O", "endpoint": "Mean MIC", "agent": "Mycobacterium avium", "strain": "ATCC 25291", "result": "5 µg/mL"}

MIC50, MIC90 and the like: level of inhibition, or share of isolates inhibited. Zone: diameter of growth inhibition. ECn: concentration that inhibits the pathogen or its effect by n%. Inhibition is in % at the dose shown (toxicity tests: loss of growth or viability).